Source: patent US8987195B2 (priority 2012, dated 2015)

Sequences of proteins named here, by UniProt entry; tags and fusion partners are left off. Residues count along the entry.
UniProt P26663, 1027-1657 limits assumed: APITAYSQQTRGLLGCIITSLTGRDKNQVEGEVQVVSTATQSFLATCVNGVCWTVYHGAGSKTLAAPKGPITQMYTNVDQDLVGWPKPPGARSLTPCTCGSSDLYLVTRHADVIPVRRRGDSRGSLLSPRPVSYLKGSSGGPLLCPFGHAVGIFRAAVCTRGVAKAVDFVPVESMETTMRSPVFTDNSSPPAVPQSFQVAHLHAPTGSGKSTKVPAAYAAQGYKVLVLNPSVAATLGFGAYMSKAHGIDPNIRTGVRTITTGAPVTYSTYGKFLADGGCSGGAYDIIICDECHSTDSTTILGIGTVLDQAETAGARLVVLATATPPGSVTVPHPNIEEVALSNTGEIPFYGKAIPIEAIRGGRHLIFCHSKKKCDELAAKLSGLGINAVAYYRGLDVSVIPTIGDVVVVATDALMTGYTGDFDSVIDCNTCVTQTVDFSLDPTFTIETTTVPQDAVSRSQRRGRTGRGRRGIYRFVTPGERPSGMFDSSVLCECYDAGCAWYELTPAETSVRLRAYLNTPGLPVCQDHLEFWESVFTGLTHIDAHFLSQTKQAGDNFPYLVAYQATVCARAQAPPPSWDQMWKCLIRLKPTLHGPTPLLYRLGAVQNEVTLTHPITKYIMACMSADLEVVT
UniProt P26663, 1658-1711 partner limits assumed: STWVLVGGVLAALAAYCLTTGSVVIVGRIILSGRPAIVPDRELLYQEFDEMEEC

What was measured:
HCV genotype 1b replicon = test: HCV replicon assay, genotype 1b replicon EC50
Description: Measuring Compound Inhibitory Potency (Genotype 1b Replicon EC50 (nM))
Measurement of inhibition by compounds was performed using the HCV replicon system. Several different replicons encoding different HCV genotypes or mutations were used. In addition, potency measurements were made using different formats of the replicon assay, including different ways of measurements and different plating formats. See Jan M. Vrolijk et al., A replicons-based bioassay for the measurement of interferons in patients with chronic hepatitis C, 110 J. VIROLOGICAL METHODS 201 (2003); Steven S. Carroll et al., Inhibition of Hepatitis C Virus RNA Replication by 2′-Modified Nucleoside Analogs, 278(14) J. BIOLOGICAL CHEMISTRY 11979 (2003). However, the underlying principles are common to all of these determinations, and are outlined below.
Stable neomycin phosphotransferase encoding replicon-harboring cell lines were used, so all cell lines were maintained under G418 selection prior to the assay. In some cases the cell lines encoded a luciferase:Neo^r fusion and could be assayed either directly by determination of RNA copy number, or indirectly through measurement of the luciferase activity.
To initiate an assay, replicon cells were plated in the presence of a dilution series of test compound in the absence of G418. Typically, the assays were performed in a 96-well plate format for manual operation, or a 384 well plate in an automated assay. Replicon cells and compound were incubated for 24-48 hours, depending on the assay. At the end of the assay, cells are washed free of media and compound and then lysed. For direct quantitation, RNA levels were measured by ^32P-probe hybridization and protection, or in a TAQMAN based assay and normalized to cellular cyclophilin A RNA levels. In some cases, luciferase activity was measured using a conventional luciferase assay. In all cases EC50 determinations were calculated as a percent of a DMSO control by fitting the data to a four parameter fit function.

[1] = molecular target: HCV NS3/4A protease genotype 1b (Hepatitis C virus genotype 1b, UniProt P26663); test: HCV NS3/4A protease time-resolved fluorescence (TRF) assay, Ki against genotype 1b; format: biochemical; settings: read-out: IC50 [gt-1b], NS3/4A genotype 1b, enzyme 0.2 nM
Description: Measuring NS3/4A Inhibitory Activity (Ki) Against Genotype 1b, Against A156T Mutants and Against Genotype 3a
One assay for measuring inhibitory activity is HCV NS3 protease time-resolved fluorescence (TRF) assay as described below and in Mao et al., Anal. Biochem. 373:1-8, 2008 and International Patent Application Publication WO 2006/102087. A NS3 protease assay can be performed, for example, in a final volume of 20 μl assay buffer containing 50 mM HEPES, pH 7.5, 150 mM NaCl, 15% glycerol, 0.15% TRITON X-100, 10 mM DTT, and 0.1% PEG 8000. NS3 and NS4A protease is pre-incubated with various concentrations of inhibitors in DMSO for 30 min. The reaction is initiated by adding the TRF peptide substrate (final concentration 25 nM). NS3 mediated hydrolysis of the substrate was run for 2.5 hours at room temperature. Product fluorescence is detected using A Pherastar Plus plate reader (BMG) or Envision (Perkin Elmer Life and Analytical Sciences with excitation at 340 nm and emission at 615 nm using the appropriate delay time optimized for the europium fluorescence probe. Testing concentrations of different enzyme forms are selected to result in a signal to background ratio (S/B) of 10-30. IC50 values are derived using a standard four-parameter fit to the data. Ki values are derived from IC50 values using the following formula, IC50=Ki(1+[S]/KM), Eqn (1), where [S] is the concentration of substrate peptide in the reaction and KM is the Michaelis constant. See P. Gallinari et al., 38 BIOCHEM. 5620-32 (1999); P. Gallinari et al., 72 J. VIROL. 6758-69 (1998); M. Taliani et al., 240 ANAL. BIOCHEM. 60-67 (1996); Mao et al., Analytical Biochemistry 373: 1-8, 2008.
The assay described above was run against genotype 1b at a concentration of 0.2 nM, against A156T mutant strains at a concentration of 0.4 nM, and against genotype 3a at a concentration of 0.025 nM.

`CC(C)(C)OC(=O)N[C@H]1CCCCC/C=C\[C@@H]2C[C@@]2(C(=O)NS(=O)(=O)C2(C)CC2)NC(=O)[C@@H]2C[C@]3(CCc4c(c(CO)nc5ccccc45)O3)CN2C1=O` showed an EC50 (HCV genotype 1b replicon; read-out: EC50 [gt-1b]) of 11.3 nM and an IC50 [1] of 0.036 nM.

For `COc1ccc2nc(C(C)C)c3c(c2c1)CC[C@]1(C[C@H]2C(=O)N[C@]4(C(=O)NS(=O)(=O)C5(C)CC5)C[C@H]4/C=C\CCCCC[C@H](NC(=O)OCC(C)(C)C)C(=O)N2C1)O3`, the EC50 (HCV genotype 1b replicon; read-out: EC50 [gt-1b]) was 4.25 nM and the IC50 [1] was 0.016 nM.

For `Cc1nc2ccc(O)cc2c2c1O[C@]1(CC2)C[C@H]2C(=O)N[C@]3(C(=O)NS(=O)(=O)C4(C)CC4)C[C@H]3/C=C\CCCCC[C@H](NC(=O)OC(C)(C)C)C(=O)N2C1`, the EC50 (HCV genotype 1b replicon; read-out: EC50 [gt-1b]) was 47.6 nM and the IC50 [1] was 0.006 nM.

`COc1ccc2nc(C)c3c(c2c1)CC[C@]1(C[C@H]2C(=O)N[C@]4(C(=O)NS(=O)(=O)C5(C)CC5)C[C@H]4/C=C\CCCCC[C@H](NC(=O)OC4CCCC4)C(=O)N2C1)O3` was tested, and the EC50 (HCV genotype 1b replicon; read-out: EC50 [gt-1b], K+ salt, tested form: K salt) was 1.03 nM and the IC50 ([1]; K+ salt, tested form: K salt) was 0.004 nM.

Where two headings read alike, the source gives them in different places.
